We go through five compounds from patent US9958439B2, “Carbohydrate detection” (RICHTER LIFE SCIENCE DEVELOPMENT AB, priority 2012, dated 2018).

Each structure is given as a SMILES string. Read-outs that look alike come from different tables or passages of the source.

The conditions of data set [1]: Excitation 300-500, Emission 545. The method, then: (§1) The excitation spectrum of the probe was analyzed for wavelengths 300-500 nm with emission read at 545 nm.
(§2) 3 μM of each probe was applied to serial two fold dilutions of the insoluble carbohydrate. Respective probes were excited at wavelengths unique to each probe (specified in figure), and emission was read at 545 nm.
(§3) Serial dilutions of carbohydrate suspensions were prepared in dH2O. Concentrations ranging from 10 to 0.039 mg/ml was used for β-1,3-glucan, cellulose and chitin, whereas 5 to 0.019 mg/ml was used for sodium alginate, glucose, amylose, glycogen, cellulobiose, heparin, chondroitin sulfate A. 3 μM of each LCO probe was added to 1 ml aliquots of each concentration of carbohydrate, after which 100 μl was dispensed in triplicates into 96 well plates. Excitation spectra were collected by exciting the sample from 300 to 500 nm and detecting emission at 545 nm. Detection of carbohydrate is concluded when there is a reproducible change in λmax and/or RFU intensity with reference to the negative control. Data from three concentrations, as well as the negative control are shown for each carbohydrate as specified in respective figure.
(§4) The excitation wavelength (emission detected at 545 nm) selected for each LCO is either (1) the λmax, or (2) the excitation wavelength which suffers the lowest background. A linear regression analysis is performed to determine the relationship between the carbohydrate concentration and RFU.

For data set [2] the following is noted: Excitation 300-500, Emission 545; for λmax-Bound: probe with sodium alginate; for λmax-Unbound: probe without sodium alginate. The procedure: 3 μM of each probe was applied to serial two fold dilutions of the insoluble carbohydrate of which the concentration shown here are 5 mg/ml (_.), 2.5 mg/ml (. . . ), 1.25 mg/ml (__) and 0 mg/ml (_). The excitation spectrum of the probe was analyzed for wavelengths 300-500 nm with emission read at 545 nm.
as §2, §3, §4

The conditions of data set [3]: Excitation 300-500, Emission 545; for λmax-Bound: probe with glucose; for λmax-Unbound: probe without glucose. The procedure:
(§5) 3 μM of each probe was applied to serial two fold dilutions of the carbohydrate of which the concentration shown here are 5 mg/ml (_.), 2.5 mg/ml (. . . ) 1.25 mg/ml (__) and 0 mg/ml (_). The excitation spectrum of the probe was analyzed for wavelengths 300-500 nm with emission read at 545 nm.
3 μM of each probe was applied to serial two fold dilutions of the carbohydrate. Respective probes were excited at wavelengths unique to each probe (specified in figure), and emission was read at 545 nm. […] The mean increase in signal (_) with [Glucose] and the fitted regression line (__) is shown.
as §3, §4

The conditions of data set [4]: Excitation 300-500, Emission 545. The method, then:
as §5
(§6) 3 μM of each probe was applied to serial two fold dilutions of the carbohydrate. Respective probes were excited at wavelengths unique to each probe (specified in figure), and emission was read at 545 nm.
as §3, §4
The source holds these as a separate data set.

The conditions of data set [5]: Excitation 300-500, Emission 545. The procedure:
3 μM of each probe was applied to serial two fold dilutions of the carbohydrate of which the concentration shown here are 5 mg/ml (_.), 2.5 mg/ml (. . . ), 1.25 mg/ml (__) and 0 mg/ml (_). The excitation spectrum of the probe was analyzed for wavelengths 300-500 nm with emission read at 545 nm.
as §6, §3, §4
The source holds these as a separate data set.

For data set [6] the following is noted: Excitation 300-500, Emission 545; for λmax-Bound: probe with Chondroitin Sulfate A; for λmax-Unbound: probe without Chondroitin Sulfate A. The procedure: as §1, §6, §3, §4

Take `Cl.Cl.c1csc(-c2cc(CCn3ccnc3)c(-c3ccc(-c4sc(-c5cccs5)cc4CCn4ccnc4)s3)s2)c1` [pHTIm, penta Hydrogen Thiophene Imidazole]: the λmax-Bound in data set [1] (probe with cellulose) amounted to 444 nm; in data set [1] (probe with chitin), 400 nm; in data set [1] (probe with β-1,3-glucan) it was 402 nm; in data set [2], 409 nm; in data set [3], 390 nm; in data set [4] (probe with amylose), 382 nm. Further, the λmax-Bound in data set [4] (probe with cellulobiose) is given as 390 nm; in data set [5] (probe with glycogen) it was 411 nm; in data set [5] (probe with heparin), 392 nm; in data set [6], 424 nm. In addition, the λmax-Unbound in data set [1] (probe without cellulose) worked out at 390 nm; in data set [1] (probe without chitin) it was 390 nm; in data set [1] (probe without β-1,3-glucan) it was 391 nm; in data set [2], 399 nm; in data set [3], 390 nm; in data set [4] (probe without amylose), 392 nm. Moreover, the λmax-Unbound in data set [4] (probe without cellulobiose) amounted to 390 nm; in data set [5] (probe without glycogen) it was 389 nm; in data set [5] (probe without heparin), 392 nm; in data set [6], 408 nm.
Regarding `Cl.Cl.O=C(Cc1cc(-c2cccs2)sc1-c1ccc(-c2sc(-c3cccs3)cc2CC(=O)NCCc2c[nH]cn2)s1)NCCc1c[nH]cn1` [pHTA-His, penta Hydrogen Thiophene Acetic acid Histidine], the λmax-Bound is 444 nm in data set [1] (probe with cellulose), 412 nm in data set [1] (probe with chitin), 385 nm in data set [4] (probe with amylose) and 390 nm in data set [6].
On to `Cl.Cl.NCCc1cc(-c2cccs2)sc1-c1ccc(-c2sc(-c3cccs3)cc2CCN)s1` [pHTEA, penta Hydrogen Thiophene Ethanol Amine], for which the λmax-Bound in data set [1] (probe with cellulose) is on record as 444 nm; in data set [1] (probe with chitin), 397 nm; in data set [1] (probe with β-1,3-glucan) it was 408 nm; in data set [2], 409 nm; in data set [3], 387 nm; in data set [4] (probe with amylose) it was 388 nm. Moreover, the λmax-Bound in data set [4] (probe with cellulobiose) stood at 387 nm; in data set [5] (probe with glycogen), 411 nm; in data set [5] (probe with heparin) it was 403 nm; in data set [6] it was 438 nm. The λmax-Unbound was 386 nm in data set [1] (probe without cellulose); 387 nm in data set [1] (probe without chitin); 387 nm in data set [1] (probe without β-1,3-glucan); 396 nm in data set [2]; 387 nm in data set [3]; 388 nm in data set [4] (probe without amylose). Further, the λmax-Unbound is 387 nm in data set [4] (probe without cellulobiose), 389 nm in data set [5] (probe without glycogen), 395 nm in data set [5] (probe without heparin) and 408 nm in data set [6].
For `O=C([O-])C[C@H](NC(=O)Cc1cc(-c2cccs2)sc1-c1ccc(-c2sc(-c3cccs3)cc2CC(=O)N[C@@H](CC(=O)[O-])C(=O)[O-])s1)C(=O)[O-].[Na+].[Na+].[Na+].[Na+]` [pHTA-Asp, penta Hydrogen Thiophene Acetic acid Aspartic acid], the λmax-Bound in data set [1] (probe with chitin) was 443 nm; in data set [5] (probe with glycogen) it was 400 nm.
For `O=C([O-])CC[C@H](NC(=O)Cc1cc(-c2cccs2)sc1-c1ccc(-c2sc(-c3cccs3)cc2CC(=O)N[C@@H](CCC(=O)[O-])C(=O)[O-])s1)C(=O)[O-].[Na+].[Na+].[Na+].[Na+]` [pHTA-Glu, penta Hydrogen Thiophene Acetic acid Glutamic acid], in that order: 435 nm and 403 nm.
